Anti-infective test results gathered from many reports (values: NIAID ChemDB through PubChem).

Shared fields: whole-cell or culture tests; agent: Herpes simplex virus 1; cells: PRK; method: cytopathic effect; read-out: EC50

Blank or dashed fields: not listed here. ECn: concentration that inhibits the pathogen or its effect by n%. Neighbouring rows are from separate reports.

structure | strain | value
O=c1[nH]c(=O)n([C@H]2C[C@H](O)[C@@H](CO)O2)cc1/C=C\Cl | KOS | 0.7 µg/mL
O=c1[nH]c(=O)n([C@H]2C[C@@H](CO)[C@H](O)C2)cc1/C=C/Br | McIntyre | 10 µg/mL
CCCCNc1cn([C@@H]2C[C@H](CO)[C@@H](O)C2)c(=O)[nH]c1=O | 377 | 25 µg/mL
O=c1[nH]c(=O)n(COCCO)cc1Br | - | >400 µg/mL
[N-]=[N+]=N[C@@H]1[C@@H](OP(=O)(O)OC[C@H]2O[C@@H](n3cnc4c(N)ncnc43)[C@H](OP(=O)(O)OCCOCn3cnc4c(=O)[nH]c(N)nc43)[C@H]2N=[N+]=[N-])[C@H](n2cnc3c(N)ncnc32)O[C@@H]1CO | VMW1837 (TK-) | 70 µg/mL
Nc1ncnc2c1ncn2[C@@H]1O[C@H](CO)[C@@H](O)[C@@H]1O | - | 3 µg/mL
[N-]=[N+]=NCc1cn([C@H]2C[C@H](O)[C@@H](CO)O2)c(=O)[nH]c1=O | VDX348 | 7 µg/mL
O=c1[nH]c(=O)n([C@H]2C[C@@H](CO)[C@H](O)C2)cc1I | McIntyre | 20 µg/mL
Nc1nc(=O)c(/C=C/Br)cn1[C@H]1C[C@H](O)[C@@H](CO)O1 | KOS | 20 µg/mL
Cc1nc(CC(O)CO)c2nc[nH]c(=O)n12 | KOS | >400 µg/mL
N#CSc1cn([C@H]2C[C@H](O)[C@@H](CO)O2)c(=O)[nH]c1=O | - | 4 µg/mL
CC(=O)Nc1nc2c(CC(O)CO)ncn2c(=O)[nH]1 | KOS | >200 µg/mL
O=c1[nH]c(=O)n([C@H]2C[C@H](O)[C@@H](CO)O2)cc1I | VDX348 | 0.1 µg/mL
Nc1ccn(COCCO)c(=O)n1 | - | 70 µg/mL
Nc1nc2c(ncn2COCCO)c(=O)[nH]1 | McIntyre | 0.05 µg/mL
Cc1nc(C(C)C)c2[nH]c(=S)[nH]c(=O)n12 | KOS | >200 µg/mL
O=c1[nH]c(=O)n([C@H]2C[C@H](O)[C@@H](CO)O2)cc1I | F | 0.1 µg/mL
Nc1nc(=O)n(C2CC(O)C(CO)O2)cc1CCCl | McIntyre | 0.7 µg/mL
O=Cc1cn([C@H]2C[C@H](O)[C@@H](CO)O2)c(=O)[nH]c1=O | B2006 (TK-) | 2 µg/mL
CCc1cn([C@H]2C[C@H](O)[C@@H](CO)O2)c(N)nc1=O | KOS | >400 µg/mL
CCc1cn([C@H]2C[C@H](O)[C@@H](CO)O2)c(=O)[nH]c1=O | F | 1.6 µg/mL
CC(=O)OC[C@H]1O[C@@H](n2cc(SC#N)c(=O)[nH]c2=O)[C@H](OC(C)=O)[C@@H]1OC(C)=O | - | 40 µg/mL
O=c1[nH]c(=O)n(C2CC(O)C(CO)O2)cc1CCCCl | KOS | 0.2 µg/mL
O=c1[nH]c(=O)n([C@H]2C[C@H](O)[C@@H](COP(=O)(O)O)O2)cc1CCc1ccccc1 | KOS | 15 µg/mL
O=c1[nH]c(=O)n(COCCO)cc1I | - | >400 µg/mL
O=c1[nH]c(=O)n([C@@H]2C[C@H](CO)[C@@H](O)C2)cc1I | B2006 (TK-) | >400 µg/mL
CN(C)c1nc2c(=O)[nH]c(N)nc2n1COCCO | - | 30 µg/mL
CO[C@H]1[C@H](O)[C@H](n2cnc3c(N)ncnc32)O[C@@H]1CO | - | >100 µg/mL
Nc1nc2c(ncn2COCCOP(=O)(O)O[C@@H]2[C@H](O)[C@@H](COP(=O)(O)O[C@@H]3[C@H](O)[C@@H](CO)O[C@H]3n3cnc4c(N)ncnc43)O[C@H]2n2cnc3c(N)ncnc32)c(=O)[nH]1 | B2006 (TK-) | >100 µg/mL
CCCc1cn([C@H]2C[C@H](O)[C@@H](COP(=O)(O)O)O2)c(=O)[nH]c1=O | CL 101 (TK-) | >797 µg/mL
Nc1nc(=O)n([C@H]2C[C@H](O)[C@@H](CO)O2)cc1/C=C/Cl | KOS | 0.07 µg/mL
Nc1ncnc2c1ncn2C[C@@H](CO)OCP(=O)(O)O | B2006 (TK-) | 1 µg/mL
Nc1nc(=O)ccn1COCCO | - | >400 µg/mL
O=c1[nH]c(=O)n(C2CC(CO)[C@H](O)C2)cc1I | B2006 (TK-) | >400 µg/mL
CSCc1cn([C@H]2C[C@H](O)[C@@H](CO)O2)c(=O)[nH]c1=O | VEX142 | 10 µg/mL
Nc1nc2c(ncn2COCCO)c(=O)[nH]1 | KOS | 0.2 µg/mL
O=c1[nH]c(=O)n([C@@H]2O[C@H](CO)[C@@H](O)[C@@H]2O)cc1/C=C/Br | MacIntyre | 0.1 µg/mL

For reference, 4 entries again:

structure	strain	value
Nc1ccn(COCCO)c(=O)n1	-	70 µg/mL
Nc1ncnc2c1ncn2[C@@H]1O[C@H](CO)[C@@H](O)[C@@H]1O	-	3 µg/mL
CCc1cn([C@H]2C[C@H](O)[C@@H](CO)O2)c(N)nc1=O	KOS	>400 µg/mL
[N-]=[N+]=NCc1cn([C@H]2C[C@H](O)[C@@H](CO)O2)c(=O)[nH]c1=O	VDX348	7 µg/mL